Measured values as given in patent US20110002859A1, “CHEWING GUM CONTAINING EUCALYPTUS EXTRACT” (LOTTE CO., LTD., priority 2008, published 2011).

System: periodontopathic bacteria
Experiment: Minimum compounding concentration for antibacterial activity in saliva
Details: from Tables 2 to 4, antibacterial activity in saliva

With `CC(C)C[C@@H](c1c(O)c(C=O)c(O)c(C=O)c1O)[C@@]1(C)CC[C@@H]2[C@@H]1[C@H]1[C@@H](CC[C@@]2(C)O)C1(C)C` [Macrocarpal A, macrocarpal A] the “appropriate minimum compounding concentration in chewing gum” value was 0.001 % by weight.

For `CC(C)C[C@H](c1c(O)c(C=O)c(O)c(C=O)c1O)[C@@]1(C)CC[C@@H]2[C@@H]1[C@H]1[C@@H](CC[C@@]2(C)O)C1(C)C` [Macrocarpal B, macrocarpal B], the “appropriate minimum compounding concentration in chewing gum” value was 0.003 % by weight.

For `C=C1CC[C@@H]2[C@H]([C@H]3[C@H]1CC[C@]3(C)[C@@H](CC(C)C)c1c(O)c(C=O)c(O)c(C=O)c1O)C2(C)C` [Macrocarpal C, macrocarpal C], the “appropriate minimum compounding concentration in chewing gum” value was 0.0015 % by weight.
